Laboratory results: PubChem BioAssay AID624099 (ICCB-Longwood, 2012)

- Purpose: 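Knock-downs relieving repression by E2 of an HPV18 LCR luciferase reporter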 (primary screen)
- Cells: human C33A cervical carcinoma cells (HPV-negative) stably expressing BPV1 E2 and an HPV18 LCR luciferase reporter
- Knock-down reagent: siRNA pool against human genes, 40 nM
- Time to read-out: 72 h
- Detection: 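HPV18 LCR reporter light per well, converted to plate-wise z-scores that exclude control wells, and averaged over triplicate plates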
- Direction: mean z-score and z-score: higher = stronger reporter signal, weaker E2 silencing
- Rule for the call: 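Mean z ≥ 2 together with z ≥ 2 in two or more of the three replicates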
The deposit covers about 21,000 reagents; this is a part drawn at random. 497 of them (2.4%) count as active. 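Higher z means weaker E2 silencing; only reporter increases were scored, and knock-downs that hurt cell survival may mask genuine repressor factors.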 Reagents against one gene are numbered here.

target | pool no. | mean z-score | z-score, replicate A | z-score, replicate B | z-score, replicate C | activity call
ZNF69 | 1 | -0.43 | -0.07 | -0.54 | -0.69 | inactive
SDHAP1 | 1 | 0.06 | 0.03 | -0.04 | 0.2 | inactive
KCNQ3 | 1 | -0.2 | -0.2 | 0.02 | -0.4 | inactive
PRPSAP2 | 1 | -0.23 | -0.81 | -0.1 | 0.22 | inactive
ALPK2 | 1 | 0.22 | 0.47 | -0.28 | 0.46 | inactive
HYAL1 | 1 | 0.21 | 0.34 | 0.32 | -0.04 | inactive
KIAA0040 | 1 | 0.41 | 0.49 | 0.51 | 0.23 | inactive
GNRHR | 1 | -0.07 | -0.12 | -0.3 | 0.2 | inactive
SLC52A1 | 1 | -1.3 | -1.3 | -1.15 | -1.46 | inactive
BEND3 | 1 | 1.7 | 1.41 | 1.52 | 2.17 | inactive
HOXB6 | 1 | 0.46 | 0.52 | 0.43 | 0.42 | inactive
CEP72 | 1 | -0.94 | -1.35 | -0.95 | -0.52 | inactive
KL | 1 | -0.14 | 0.04 | -0.02 | -0.44 | inactive
CRELD2 | 1 | 0.08 | -0.27 | 0.12 | 0.38 | inactive
NID2 | 1 | 0.33 | 0.44 | 0.65 | -0.11 | inactive
NAA25 | 1 | -0.69 | -0.99 | -0.7 | -0.39 | inactive
TCN2 | 1 | -1.33 | -1.23 | -1.37 | -1.37 | inactive
PDSS2 | 1 | -0.04 | -0.31 | 0.23 | -0.03 | inactive
ACMSD | 1 | 0.95 | 1 | 0.98 | 0.87 | inactive
AP2A1 | 1 | 1.27 | 1.4 | 0.88 | 1.52 | inactive
SLCO3A1 | 1 | 1 | 1.36 | 0.7 | 0.92 | inactive
C4orf46 | 1 | 0.74 | 0.65 | 1.12 | 0.45 | inactive
RRP1 | 1 | -0.18 | -0.34 | -0.1 | -0.09 | inactive
VSTM1 | 1 | 3.72 | 3.52 | 3.75 | 3.89 | active
LDLRAD4 | 1 | 0.39 | 0.69 | 0.26 | 0.24 | inactive
ART4 | 1 | 0.34 | 0.41 | 0.39 | 0.22 | inactive
ZFP3 | 1 | -0.46 | -0.87 | -0.16 | -0.36 | inactive
ITIH1 | 1 | 1.33 | 1.09 | 1.4 | 1.5 | inactive
INSL3 | 1 | -0.76 | -0.99 | -0.69 | -0.61 | inactive
ELF2 | 1 | 0.05 | 0.01 | -0.11 | 0.26 | inactive
FGF10 | 1 | -0.34 | -0.24 | -0.44 | -0.34 | inactive
SAA4 | 1 | -0.06 | -0.41 | 0.14 | 0.1 | inactive
AKR1C3 | 1 | -1.45 | -1.21 | -1.41 | -1.71 | inactive
TULP4 | 1 | 0.62 | 0.5 | 0.69 | 0.68 | inactive
POLR2L | 1 | -1.17 | -1.28 | -1.11 | -1.1 | inactive
MKRN2 | 1 | 0.1 | -0.21 | 0.3 | 0.22 | inactive
LRP5L | 1 | -0.08 | -0.04 | -0.48 | 0.29 | inactive
LINC02487 | 1 | 0.23 | -0.15 | 0.91 | -0.06 | inactive
TXNDC11 | 1 | 1 | 1.2 | 1.15 | 0.65 | inactive
ZNF33A | 1 | 0.47 | 0.43 | 0.25 | 0.72 | inactive
ZNF510 | 1 | 0.34 | 0.33 | 0.45 | 0.23 | inactive
MYCL | 1 | -0.44 | -0.44 | -0.58 | -0.31 | inactive
LOC151363 (retired record) | 1 | 1.2 | 1.43 | 1.16 | 1.02 | inactive
OR11G2 | 1 | 2.06 | 2.27 | 2.08 | 1.84 | active
ZBTB8A | 1 | 0.97 | 1.04 | 0.92 | 0.96 | inactive
CPA2 | 1 | -3.47 | -3.44 | -3.43 | -3.54 | inactive
CLPP | 1 | -1.18 | -0.87 | -1.5 | -1.17 | inactive
LOC401490 (retired record) | 1 | 1.13 | 1.22 | 1.36 | 0.82 | inactive
TRMT2A | 1 | 0.82 | 0.55 | 0.63 | 1.3 | inactive
DYDC1 | 1 | 0.24 | -0.13 | 0.02 | 0.83 | inactive
NAP1L5 | 1 | 1.45 | 1.08 | 1.79 | 1.46 | inactive
PCBP1 | 1 | -0.04 | 0.14 | -0.28 | 0.01 | inactive
POLR2B | 1 | -3.73 | -3.67 | -3.73 | -3.8 | inactive
ZNF799 | 1 | 0.19 | 0.06 | 0.23 | 0.27 | inactive
ZNF799 | 2 | -0.96 | -0.87 | -1.04 | -0.96 | inactive
TGFA | 1 | -0.05 | -0.01 | -0.12 | -0.03 | inactive
PGM2 | 1 | -0.44 | -0.75 | -0.53 | -0.05 | inactive

Records listed above marked active (2):
target | pool no. | mean z-score | z-score, replicate A | z-score, replicate B | z-score, replicate C | activity call
VSTM1 | 1 | 3.72 | 3.52 | 3.75 | 3.89 | active
OR11G2 | 1 | 2.06 | 2.27 | 2.08 | 1.84 | active
